Data from article PMC11774035.
Construct, isoform or probe ends are uncertain for at least one entry. Tags and fusion partners may be left off the protein sequences shown.

Target: T1, His6-Lrp (Klebsiella oxytoca MIT 09-7231) (UniProt A0A181XPK7)
T1 sequence (looked up, limits assumed): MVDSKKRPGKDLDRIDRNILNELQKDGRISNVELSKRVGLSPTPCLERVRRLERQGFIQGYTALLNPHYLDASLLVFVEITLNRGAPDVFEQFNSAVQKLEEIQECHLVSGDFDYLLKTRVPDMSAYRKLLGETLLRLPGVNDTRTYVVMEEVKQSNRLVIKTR
Experiment: EMSA
Details: 7 mM L-leucine, recombinant protein

Sequence	binding result (positive control, 40 mM HEPES (pH not stated), 8 mM MgCl2, 50 mM KCl, 1 mM DTT, 0.1 mg/mL BSA, 0.2 uM DNA, 0-0.8 uM His6-Lrp, protein details: N-terminal His6, probe letters rebuilt from the primers and the genome)	binding result (shift at 0.4 and 0.8 uM Lrp, 40 mM HEPES ([…], room temperature 20 min, […], protein details: N-terminal His6, probe letters rebuilt from the primers and the genome)
CGTTGAAGGTCAATAGCCGTACCTGCTATCTCTCCTGGCATGAAGCGGCAGGCCGCGATAAAGGCCATCAGTGGATGGAAGAATTGCTGGTGAGTATCTGCCAGCGCTAAACTGTCGCAATACAAACGGGGGCTTCGGCTCCTGCTTTGTGTGACAAAAATCACTAAATGCAGAATTTTATTCTGTTTGCATTGTTCGGTAACCAACGCGGTCAGATAAAAAATGGATGATTTGCTGCTGTTGGTTATTTTCCCCGAGCATTGACTATCATATTTTCTTATCGCCGAAGTTTTTCACCGTGTTTTACCTGCGAATCTTTCTTTTATTCTTTTAATGCCGGTCAAGCGCCGACGCTCGCCAATTGCCTGCCCGTAAGCGAGCAGTTATGGTAACGGCATGCAGTCTATTCATCTCAATGCGAAGCTATTGCGCTTCGTCTTGTGCGAGCGCGCGGAAATCGGATTCCGCTGTCGTTAAAAACAATAAGCCGGGAGGCAAACCATGGAGAT (double strand) [ilvI regulatory region]	binds	–
TCTCTCCTGGAGAATTAGGAACGTTCACACGCATAAAATCTTCTCTTGAAGAAGAAATTAAAGATCTAAAGAAATGCCGCCAGCTTACCGTGAGATGCTTCTAAGAAAACACCGCAAAACAAGCAACATATAAGCAACACAAACATAACTAAGCGTTGCTTTCAATAGTCTATCTTCGAACCTCACCCTCAGTCAATTTGATTTCCAAAAAAAAATCATATAGCAAAAAATAAAAAACAATCAAAAATAATAACCATAAAAATCAATAACATGTAAAAACATAAATCAAATATAAATTTTTTTGATTGACATAATGCACTCATTGGCGTGCAATATTTGTGCAAACCGTATCGTCTTTCATGTCCAGTAAACAGACAAGGAATAGCACTTTCTCATCGCTTTTTTGTTAAAAAACAAACGAAAAACCTGTTAAATTTCGAGTGAGAGA (double strand) [aroX-npsA intergenic region WT]	–	binds
